Potato spindle tuber viroid, loop 15: variant abundance in plants

Data from the supplement of Wu et al. 2024, doi:10.1371/journal.ppat.1012142.

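Three N. benthamiana plants were inoculated with the whole mutant pool. Samples came from the inoculated region at 5 days, the leaf margin at 10 and upper systemic leaves at 12.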

Region: loop 15 of PSTVd (intermediate strain), upper and lower strand joined, each 5' to 3', the first 7 letters being the upper strand, closing pairs included. Wild type: GGAAACCGCUACUAC. Varied positions (N): GGAAACCGNNNNNNC.

Values are reads per thousand in the sample; higher means more abundant, 0 means not found. Each site shows the three plants. "Pool" is the share in the plasmid pool used as inoculum, on the same scale. The inoculated region was read from the minus strand, the other sites from the plus strand. Samples held 43,870 to 66,106 reads, so the smallest values rest on one or two reads. The authors trace changes outside the varied positions to PCR and sequencing errors or to mutation in the plant; presence does not show that a variant is infectious alone. Wild type was 33.9 per thousand in the pool and the most common sequence in every sample (inoculated region 202, 200, 159; leaf margin 724, 746, 710; systemic leaves 856, 883, 880).

sequence	pool	inoculated region	leaf margin	systemic leaves
GGAAACCGUAUAACC	0.224	0.0819 0.177 0.0762	0.0162 0.0223 0.0200	0.0161 0 0
GGAAACCGUAUAAGC	0.208	0.0655 0.0803 0.171	0 0 0	0 0 0
GGAAACCGUAUAAUC	0.288	0.213 0.305 0.171	0 0 0.0401	0 0 0
GGAAACCGUAUACAC	0.192	0.147 0.0643 0.0762	0 0 0	0 0 0
GGAAACCGUAUACCC	0.240	0.115 0.0964 0.0762	0 0 0	0 0 0
GGAAACCGUAUACGC	0.272	0.0655 0.129 0.190	0 0 0.0200	0 0 0
GGAAACCGUAUACUC	0.144	0.131 0.0643 0.114	0.0323 0 0.0200	0.0161 0 0
GGAAACCGUAUAGAC	0.288	0.115 0.0643 0.171	0.0323 0 0.0200	0.0161 0 0
GGAAACCGUAUAGCC	0.192	0.131 0.193 0.114	0 0.0223 0.0200	0.0161 0 0
GGAAACCGUAUAGGC	0.208	0 0.0321 0.0571	0 0 0	0 0 0
GGAAACCGUAUAGUC	0.192	0.115 0.0964 0.0952	0 0.0223 0	0 0 0
GGAAACCGUAUAUAC	0.224	0.311 0.402 0.324	0.0970 0.289 0.220	0.0322 0.0908 0.137
GGAAACCGUAUAUCC	0.240	0.0328 0.0803 0.0190	0.0162 0 0.0601	0 0 0
GGAAACCGUAUAUGC	0.256	0.0164 0.112 0.133	0.0162 0 0	0 0 0
GGAAACCGUAUAUUC	0.224	0.246 0.209 0.457	0.0323 0.0668 0.220	0.0322 0 0
GGAAACCGUAUCAAC	0.288	0.0655 0.0321 0.0762	0.0323 0.0223 0.0200	0 0 0
GGAAACCGUAUCACC	0.240	0.0819 0.0643 0.133	0 0 0	0.0161 0 0
GGAAACCGUAUCAGC	0.320	0.0983 0.145 0.0571	0 0 0.0200	0 0 0
GGAAACCGUAUCAUC	0.160	0.0164 0.0803 0.114	0 0 0.0200	0 0 0
GGAAACCGUAUCCAC	0.128	0.197 0.0321 0.114	0 0 0	0.0161 0 0
GGAAACCGUAUCCCC	0.112	0.0655 0.112 0.114	0 0 0.0200	0.0161 0 0
GGAAACCGUAUCCGC	0.192	0.262 0.112 0.228	0.0162 0.0223 0.0200	0 0 0
GGAAACCGUAUCCUC	0.336	0.0655 0.129 0.152	0 0 0.0200	0 0 0
GGAAACCGUAUCGAC	0.240	0.147 0.0643 0.152	0 0 0.0200	0 0 0
GGAAACCGUAUCGCC	0.176	0.0491 0.0803 0.152	0.0162 0 0.0401	0 0 0
GGAAACCGUAUCGGC	0.192	0.115 0.129 0.0762	0 0 0.0401	0 0 0
GGAAACCGUAUCGUC	0.176	0.180 0.145 0.133	0 0 0.0200	0 0 0
GGAAACCGUAUCUAC	0.176	0.262 0.353 0.343	0.113 0.0445 0.220	0.0483 0 0
GGAAACCGUAUCUCC	0.128	0.0819 0.0643 0	0.0162 0 0	0 0 0
GGAAACCGUAUCUGC	0.224	0.0491 0.0803 0.133	0.0162 0.0223 0	0 0 0
GGAAACCGUAUCUUC	0.208	0.0655 0.0803 0.114	0.0162 0 0	0 0 0
GGAAACCGUAUGAAC	0.240	0.147 0.257 0.0571	0 0 0	0 0.0151 0
GGAAACCGUAUGACC	0.256	0.147 0.0964 0.0190	0 0.0223 0	0 0 0
GGAAACCGUAUGAGC	0.192	0.0655 0.0643 0.0952	0.0485 0 0.0200	0 0 0
GGAAACCGUAUGAUC	0.256	0.262 0.257 0.228	0 0 0.0200	0 0 0
GGAAACCGUAUGCAC	0.240	0.0328 0.0643 0.0571	0.0162 0 0	0 0 0
GGAAACCGUAUGCCC	0.176	0.0819 0.0803 0.248	0 0 0	0.0161 0 0
GGAAACCGUAUGCGC	0.288	0.0655 0.0321 0.0190	0.0162 0.0223 0.0200	0 0 0
GGAAACCGUAUGCUC	0.272	0.131 0.0964 0.152	0 0 0	0 0 0
GGAAACCGUAUGGAC	0.144	0.115 0.112 0.133	0.0162 0 0	0 0 0
GGAAACCGUAUGGCC	0.192	0.147 0.112 0.0571	0 0.0223 0	0 0 0
GGAAACCGUAUGGGC	0.256	0.180 0.177 0.0571	0 0.0223 0	0 0 0
GGAAACCGUAUGGUC	0.240	0.0983 0.0643 0.0571	0.0162 0 0.0200	0 0 0
GGAAACCGUAUGUAC	0.240	0.344 0.386 0.286	0.129 0.134 0.160	0 0.0605 0.114
GGAAACCGUAUGUCC	0.240	0.0819 0.129 0.0381	0.0162 0.0223 0	0 0 0
GGAAACCGUAUGUGC	0.256	0.344 0.386 0.324	0.113 0.134 0.160	0.0161 0 0.0228
GGAAACCGUAUGUUC	0.288	0.311 0.225 0.305	0.0647 0.134 0.160	0.0483 0.0454 0.137

A selection of 2 entries from above:

| sequence | pool | inoculated region | leaf margin | systemic leaves |
|---|---|---|---|---|
| GGAAACCGUAUAGGC | 0.208 | 0 0.0321 0.0571 | 0 0 0 | 0 0 0 |
| GGAAACCGUAUCGGC | 0.192 | 0.115 0.129 0.0762 | 0 0 0.0401 | 0 0 0 |